Measurements as given in paper PMC5476282.
For some assays here: The exact form of at least one protein or probe is not confirmed. For some assays here: Protein sequences can lack the tags named with them.

How the values were obtained:
[1] = target: LoiA-His6 (Salmonella enterica serovar Typhimurium ATCC 14028) (UniProt A0A0F6AZ30); test: EMSA; settings: LoiA 0-1.6 uM; 20 mM Tris-HCl pH 7.5, 80 mM NaCl, 0.1 mM EDTA, 1 mM DTT; […]; recombinant protein; residues 1-296; label: none (ethidium bromide stain); probe letters rebuilt from the primers and the genome
[2] = test system: T1, ArcA-His6 (Salmonella enterica serovar Typhimurium ATCC 14028); test: EMSA; settings: ArcA 0-1.6 uM, low O2; 20 mM Tris-HCl pH 7.5, 80 mM NaCl, 0.1 mM EDTA, 1 mM DTT; 100 ng DNA in 20 ul, 37 C, 20 min (ArcA under low O2); 6% PAGE in 0.5x TBE; recombinant protein; label: none (ethidium bromide stain); probe letters rebuilt from the primers and the genome
T1 sequence (looked up, limits assumed): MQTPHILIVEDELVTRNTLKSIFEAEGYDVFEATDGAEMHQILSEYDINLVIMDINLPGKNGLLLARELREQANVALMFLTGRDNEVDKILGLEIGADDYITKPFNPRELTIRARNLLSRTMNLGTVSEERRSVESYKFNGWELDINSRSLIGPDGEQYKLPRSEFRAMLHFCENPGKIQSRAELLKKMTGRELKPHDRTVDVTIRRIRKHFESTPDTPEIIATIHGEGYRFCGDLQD

| Sequence | binding result [1] | binding result [2] |
| --- | --- | --- |
| CTTCAAGCGTCACGTTAACTACCTGCTCTTTTTTGAGCACCAACATCCCAGGTTCGTCACAGTAAATCGTATCGTGATTATTGCTAATCGTCAGTTTACCGCTCCGAAAGCAAACTAAAGTGAAACTGCTTACATAAAGATTTTTGATGGTAACCTGCTGAGTCTGACTTTTAATTTGCTGCCGGGTATTTGTCAAAAGTGATTTTAATTTCTGTAAGTTATCTGCGGCAGGACGCTGATGACTATTACTTACAAAGGTTACATTTTCCATATTATCCCTTTGTTGATGTTATTTTAATGTTCCTTACTGGTATCCTACTGAAAAAATCTGAGTTGTAAATGCTCTTTATTAGCGTGTGTTGGCAATGGTCTGATTGTTACACCAAAAGAACCCAAATTTGGGTAATTTATCTACAGTAGTTTAAGCCCCAATGGGGATGATGGTTCTTTTAATATGTGTTGAGACGCATTATACAGAATAAATTGATTTTATTTCTCACTTTTCATTCTATTTTCATCAGGAATCCCTGTGTCCTGTGCGGTAATCTGCTGCTATCGAGAACGACAGACATCGCTAACAGTATATATGGAAACATCAAAAGAGAAGACGATAACAAGCCCAGGGCCATACATAGTTCGATTACTTAACAGCTCACTGAACGGCTGTGAGT (double strand) [hilD promoter (PhilD)] | binds | – |
| ATTACTCTTTGCAAAAACAAAAAGTTAACAAAAAATTCACCATGCATTCAATGAATAAACATTATTAACATTAACTTCAAAAATTGATTTTAATCAATATTTAAATGTTGGAAAAGAGCATCAAAACTGGTTAAATTGTCCGTGATCAAATTCCCTGAAAAGCGATAGATTAGCCATAAATTGATCGCTGTCGAAAAAAGCAAATCTGACCCACTAAAAACCTGTTTATTGTAAGGGTTTTACGGCGTAATATATTTGCGGGATCAATTTGGGTTTTTTATTAACATGTTTGTAACTTTTCATCATTACTGTTTCCTTCCCGAGGGGATAGTACGATGGAAGGCCGCAAATAAATTTGTATTGGGGCATGCGTGTGACCCTTTCTAACGGGGTTCACTCTCGGAGTCTTCATGCGATGAGCAAGGAGTCATGATGTTAGATATAGTCGAACTGTCGCGCTTACAGTTTGCCTTGACCGCGATGTACCACTTCCTGTTTGTGCCGCTAACGCTCGGTATGGCGTTCCTGCTGGCCATTATGGAAACGGTATACGTCCTTTCCGGCAAACAGATTTATAAAGATATGACCAAGTTC (double strand) [cydA promoter (PcydA)] | – | binds |
